Assay results from article PMC9573077, “Anti-Ovarian Cancer Conotoxins Identified from Conus Venom” (2022).

What was measured:
[1] = test system: ID8 ovarian cancer cells; assay: Ovarian cancer cell viability assay (MTT); conditions: for Cell inhibitory rate on ID8 cells: 10 µM peptide, 72 h treatment; for IC50: read-out: IC50 against ID8 cells, 72 h treatment, three independent experiments
[2] = test system: Nav1.4; assay: Whole-cell patch clamp recording, blockage of voltage-gated sodium channel Nav1.4
[3] = read-out: Current inhibition at TP1 on Nav1.4, complete resting state (TP1), peptide 10 µM, CHO cells, mean and standard deviation of three parallel experiments
[4] = read-out: Current inhibition at TP2 on Nav1.4, semi-activated state (TP2), peptide 10 µM, CHO cells, mean and standard deviation of three parallel experiments

SMILES | Cell inhibitory rate on ID8 cells [1] [%] | IC50 [1] [µM] | inhibition [2, 3] [%] | inhibition [2, 4] [%]
CC(C)[C@@H]1NC(=O)[C@H](CC(=O)O)NC(=O)[C@H](Cc2c[nH]c3ccccc23)NC(=O)[C@H](CO)NC(=O)[C@@H]2CSSC[C@@H](C(=O)NCC(=O)O)NC(=O)[C@@H]3CSSC[C@H](NC(=O)[C@H](CO)NC(=O)[C@@H]4CCCN4C(=O)[C@H](Cc4c[nH]cn4)NC(=O)[C@H](CC(=O)O)NC(=O)[C@H](CSSC[C@H](N)C(=O)N2)NC1=O)C(=O)N[C@@H]([C@@H](C)O)C(=O)N3 | 45.08 | 24.3 | 3.17 | 24.3
CC[C@H](C)[C@@H]1NC(=O)[C@H](CCC(N)=O)NC(=O)CNC(=O)[C@H]([C@@H](C)O)NC(=O)CNC(=O)CNC(=O)[C@@H]2CSSC[C@H](NC(=O)[C@H](CCC(=O)O)NC(=O)[C@H](CC(N)=O)NC(=O)[C@H](CCCCNC(C)=O)NC(=O)[C@H]([C@@H](C)CC)NC1=O)C(=O)N[C@@H](CCCCN)C(=O)N[C@@H]([C@@H](C)O)C(=O)N[C@H](C(=O)N[C@@H](Cc1c[nH]cn1)C(=O)NCC(=O)N[C@@H](CCCCN)C(=O)N[C@@H](CCCCNC(C)=O)C(=O)N[C@H](C(=O)N[C@H](C(=O)N[C@@H](CCCCN)C(=O)O)[C@@H](C)O)C(C)C)CSSC[C@H](NC(=O)[C@H](CCSC)NC(=O)[C@H](CCC(N)=O)NC(=O)[C@@H](N)CCC(N)=O)C(=O)NCC(=O)N[C@@H](CCCNC(=N)N)C(=O)N2 | 19.39 | 112 |  | 
CC(C)C[C@@H]1NC(=O)[C@H](Cc2c[nH]cn2)NC(=O)[C@H](CC(=O)O)NC(=O)[C@@H]2CSSC[C@H](NC1=O)C(=O)N[C@@H](CO)C(=O)N[C@H]1CSSC[C@H](N)C(=O)N[C@@H](CSSC[C@@H](C(=O)NCC(=O)N[C@@H](CO)C(=O)O)NC1=O)C(=O)N[C@@H](Cc1c[nH]cn1)C(=O)N[C@@H](Cc1c[nH]c3ccccc13)C(=O)N[C@@H](CC(N)=O)C(=O)N[C@@H](Cc1c[nH]c3ccccc13)C(=O)N2 | 23.79 | 55 | 4.62 | 23.6

Like-named read-outs stand apart in the source and are kept apart here.
